Anti-infective test results gathered from many reports (values: NIAID ChemDB through PubChem).

Common to all: growth or infection tests; organism: Influenza A virus; endpoint: EC50

Neighbouring rows are from separate reports.

compound,strain or isolate,cell line,value
CC(=O)N[C@@H]1[C@@H](N)C=C(C(=O)O)O[C@H]1C(=O)N(CCN=[N+]=[N-])CCc1ccccc1,A/Singapore/1/57,-,0.001 µg/mL
OC1(C23CC4CC(CC(C4)C2)C3)CC=NO1,H7N1 A/Rostock/34,Chick embryo fibroblasts,16.35 µg/mL
CCC(CC)O[C@@H]1C=C(C(=O)O)C[C@H](N)[C@H]1NC(C)=O,H3N2 TOKYO/3/67,MDCK,0.034 µM
CCCN(CCc1ccc(O)cc1)C(=O)[C@@H]1OC(C(=O)O)=C[C@H](N)[C@H]1NC(C)=O,A/Singapore/1/57,-,0.0001 µg/mL
CCCC(CCC)C(NC(C)=O)C1CC(C(=O)O)CC1N=C(N)N,H5N1 A/gull/PA/4175/83,MDCK,0.02 µM
C1CCN(CCN2CCC(C3C4CC5CC(C4)CC3C5)C2)CC1,H2N2 A2 JAPAN/305/57,MDCK,0.7 µM
CCC(=O)C(CCCCCCc1ccc(O)cc1)C(=O)CC,A2 JAP 170,-,<100 µg/mL
CN1CCc2cc3c(cc2C(=O)Cc2ccc4c(c2C1)OCO4)OCO3,A/Weybridge,CEF,>60 µM
CC(=O)N[C@H]1[C@H]([C@H](O)[C@H](O)CO)OC(C(=O)O)=C[C@@H]1N=C(N)N,H7N3 A/FPV/ENG/1/63,MDCK,≥1 µM
CCCC(CCC)C(NC(C)=O)C1C(N=C(N)N)CC(C(=O)O)C1O,H5N1 A/gull/PA/4175/83,MDCK,0.02 µM
CCCN(CCc1cccc(O)c1)C(=O)[C@@H]1OC(C(=O)O)=C[C@H](N)[C@H]1NC(C)=O,A/Singapore/1/57,-,0.0002 µg/mL
N#CNc1nncs1,A/ANN ARBOR/1/57,MDCK,0.73 µg/mL
CCCN(CCCc1ccccc1)C(=O)[C@@H]1OC(C(=O)O)=C[C@H](N)[C@H]1NC(C)=O,A/Singapore/1/57,-,0.001 µg/mL
CCOC(=O)C1=C[C@@H](OC(CC)CC)[C@H](NC(C)=O)[C@@H](N)C1,H5N1 A/chicken/Thailand/3/04,MDCK,22.35 µM
CCC(=O)C(CCCCCCOc1ccc(OC)cc1Cl)C(=O)CC,A2 JAP 170,-,<200 µg/mL
C#C[C@H](O)C1=C[C@@H](n2cnc3c(N)ncnc32)[C@H](O)[C@@H]1O,H2N2 X31,MDCK,>50 µg/mL
[N-]=C=Nc1nncs1,H7N7 A/Weybridge,CEF,>32 µg/mL
C/C=C\[C@@H]1C[C@H](C(=O)O)N[C@H]1[C@@H](NC(C)=O)[C@](C)(CCC)OC,A/N9 (WILD TYPE),MDCK,0.002 µM
CCCN(CCc1cccc(OC)c1)C(=O)[C@@H]1OC(C(=O)O)=C[C@H](N)[C@H]1NC(C)=O,A/Singapore/1/57,-,0.0004 µg/mL
Nc1nc2c(ncn2[C@@H]2O[C@H](CO)[C@@H](O)[C@H]2F)c(=O)[nH]1,H2N2 A/Singapore/1/57,MDCK,8 µM
CC(N)C12CC3CC(CC(C3)C1)C2,H7N1 A/Rostock/34,Chick embryo fibroblasts,0.012 µg/mL
CCCN(CCc1ccc(OC)cc1)C(=O)[C@@H]1OC(C(=O)O)=C[C@H](N)[C@H]1NC(C)=O,A/Singapore/1/57,-,0.003 µg/mL
CC[C@H](O)C1=C[C@@H](n2cnc3c(N)ncnc32)[C@H](O)[C@@H]1O,H2N2 X31,MDCK,>250 µg/mL

Blank or dashed fields: not listed here. ECn: concentration that inhibits the pathogen or its effect by n%.